# Laboratory results as given in US20230302100A1.
# Target: denosumab (XGEVA)
# Experiment: cell-based or functional assay
substance,measurement,value
IdeS BX1001865 (enzyme),"Conc. of enzyme for 1st IgG2 (XGEVA) heavy chain cleavage (IgG to scIgG), SDS-PAGE",14 ng/mL
